The source of these data is article PMC11790949, “A multiplex method for rapidly identifying viral protease inhibitors” (Molecular Systems Biology, 2025).

Sequences of proteins named here, by UniProt entry; tags and fusion partners are left off. Residues count along the entry.
UniProt P0C6X2, 3335-3637 limits assumed: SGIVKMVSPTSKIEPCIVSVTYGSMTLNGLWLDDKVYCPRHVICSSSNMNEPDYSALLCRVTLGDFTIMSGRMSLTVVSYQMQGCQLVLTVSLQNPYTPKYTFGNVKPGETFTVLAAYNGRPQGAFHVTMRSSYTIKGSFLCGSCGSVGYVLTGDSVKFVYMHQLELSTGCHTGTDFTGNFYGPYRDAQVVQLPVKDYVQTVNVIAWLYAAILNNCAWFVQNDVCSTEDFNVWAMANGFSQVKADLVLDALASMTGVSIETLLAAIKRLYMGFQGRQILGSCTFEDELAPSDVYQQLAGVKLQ
UniProt P0C6X5, 2940-3242 limits assumed: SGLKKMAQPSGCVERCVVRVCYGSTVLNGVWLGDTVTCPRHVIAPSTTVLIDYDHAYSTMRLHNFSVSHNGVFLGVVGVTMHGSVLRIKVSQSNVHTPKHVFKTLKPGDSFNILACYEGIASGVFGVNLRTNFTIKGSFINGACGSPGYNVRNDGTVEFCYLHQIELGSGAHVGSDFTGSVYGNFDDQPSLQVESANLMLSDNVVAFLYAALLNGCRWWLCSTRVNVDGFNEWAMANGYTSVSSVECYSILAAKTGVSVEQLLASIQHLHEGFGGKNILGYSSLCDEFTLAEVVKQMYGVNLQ

Each structure is given as a SMILES string.

The test system of one assay is BWCoV-SW1-3CL. The class given is cell-based, Beluga whale coronavirus SW1.
A further assay deals with HCoV-HKU1-3CL (Human coronavirus HKU1, UniProt P0C6X2). The class given is cell-based.
The target of the next assay is HCoV-NL63-3CL (Human coronavirus NL63, UniProt P0C6X5). The class given is cell-based.

For the compound `O=C(Oc1ccc2ccc(=O)oc2c1)c1cccs1` [CB6762077], the Max relative growth in the assay with BWCoV-SW1-3CL is recorded as 1.621; at HCoV-HKU1-3CL, 4.844; at HCoV-NL63-3CL, 1.447.
